Anti-infective test results gathered from many reports (values: NIAID ChemDB through PubChem).

All rows: growth or infection tests; organism: Herpes simplex virus 2; measure: EC50

Conditions beyond the fields shown may differ between rows. Blank or dashed fields: not listed here. ECn: concentration that inhibits the pathogen or its effect by n%. Two numbers with a dash give a range or band.

structure,strain or isolate,cells,read by,value
Nc1ncnc2c1ncn2OCC(CO)OCP(=O)(O)O,MS,MRC-5,plaque count,>310 µg/mL
CCCCCOc1nc(N)nc2c1ncn2/C=C1/C[C@@H]1CO,,HFF,cytopathic effect,>329.6 µM
Nc1ncnc2c1ncn2[C@@H]1C=C(CO)[C@@H](O)C1,G,PRK,cytopathic effect,>400 µg/mL
Nc1nc2c(ncn2COCCO)c(=O)[nH]1,,,,1.33 µM
CC(C)=CCCC(COS(=O)(=O)O)C1CCC2C3CC=C4C[C@H](O)[C@@H](OS(=O)(=O)O)CC4(C)C3CCC12C,G,VERO,plaque count,51.5 µg/mL
CC/C=C/C/C=C/C/C=C/CCCCCCCC(=O)OCC(CO[C@@H]1O[C@H](CO)[C@@H](O)[C@H](O)[C@H]1O)OC(=O)CCCCCCC/C=C\C/C=C\CCCCC,186,VERO,plaque count,<50 µg/mL
O=C(O)C(O)c1ccccc1,G,CaSki,plaque count,<1 µg/mL
CCCCCSc1nc(N)nc2c1ncn2/C=C1/C[C@@H]1CO,,HFF,cytopathic effect,310.9 µM
CCCCCCCCCCCC(=O)OCC(CO[C@@H]1O[C@H](CO)[C@H](O)[C@H](O)[C@H]1O)OC(=O)CCCCCCCCCCC,186,VERO,plaque count,50 µg/mL
CC(C)CCCC(COS(=O)(=O)O)C1CCC2C3CC=C4C[C@H](O)[C@@H](OS(=O)(=O)O)CC4(C)C3CCC12C,TYPE G,VERO,plaque count,18.4 µg/mL
O=[N+]([O-])c1cc(-c2ccccc2)n(COCCO)c1-c1ccccc1,,VERO,plaque count,>46 µM
Nc1ncnc2c1ncn2C[C@H](O)CO,196,PRK,cytopathic effect,>400 µg/mL
O=c1ccn(C[C@H]2C[C@H]2CO)c(=O)[nH]1,,VERO,,>50 µM
Cn1cc(C(=O)NCc2ccc(Cl)cc2)c(=O)c2cc(CN3CCOCC3)ccc21,L6250234 (WILD TYPE),HFF,plaque count,6.2 µM
CC(=O)OC[C@H]1O[C@@H](OC(=O)NS(=O)(=O)OC[C@H]2O[C@@H](n3ccc(=O)[nH]c3=O)[C@H](OC(C)C)[C@@H]2OC(C)C)[C@@H](OC(C)=O)[C@@H](OC(C)=O)[C@@H]1OC(C)=O,Lovelace,VERO,plaque count,>100 µg/mL
CC(=O)O[C@H]1CC2=CCC3C(CCC4(C)C(C(CCC=C(C)C)COS(=O)(=O)O)CCC34)C2(C)C[C@@H]1OS(=O)(=O)O,TYPE G,VERO,plaque count,22.4 µg/mL
Cc1cn([C@@H]2C[C@H](CO)[C@@H](O)C2)c(=O)[nH]c1=O,,HFF,plaque count,>10 µg/mL
CC(=O)Nc1nc2c(CC(O)CO)nc(C)n2c(=O)[nH]1,G,PRK,cytopathic effect,>400 µg/mL
O=C(/C=C/c1ccc(O)c(O)c1)O[C@@H]1CC(O)(C(=O)O)C[C@@H](OC(=O)/C=C/c2ccc(O)c(O)c2)C1O,MS,VERO,cytopathic effect,>100 µM
CC(=O)NC(CCc1ccc(Cl)c(Cl)c1)c1cccc(O)c(=O)c1,Clinical isolate,HFF,plaque count,1.67 µM
CC1(C)OCC2(CO[C@@H](n3ccc(=O)[nH]c3=O)C2)O1,,CCL18,,>100 µM
CCCOc1nc(N)nc2c1ncn2/C=C1/C[C@@H]1CO,,HFF,cytopathic effect,62.8 µM
Nc1nc(N)c2ncn([C@H]3CO[C@H](CO)[C@@H](O)C3)c2n1,G,E6SM,cytopathic effect,>20 µg/mL
OCCOCn1c(-c2ccccc2)c(Br)c(Br)c1-c1ccccc1,,VERO,plaque count,>51 µM
COc1cc(Cc2cnc(-n3c(-c4ccccc4)nc4ccc(Br)cc4c3=O)nc2N)cc(OC)c1OC,G,E6SM,cytopathic effect,80 µg/mL
O=C(O)c1c([N+](=O)[O-])c(-c2ccccc2)n(COCCO)c1-c1ccccc1,,VERO,plaque count,>300 µM
Nc1nc2c(ncn2C[C@H]2C[C@H]2CO)c(=O)[nH]1,,VERO,,>50 µM
CCCCCCCCCCCC(=O)OCC(CO[C@@H]1O[C@H](CO)[C@@H](O)[C@H](O)[C@H]1O)OC(=O)CCCCCCCCCCC,186,VERO,plaque count,50 µg/mL
O=c1[nH]cnc2c1ncn2C[C@H]1C[C@H]1[C@H](O)CO,,VERO,,>50 µM
CCCCCCCC/C=C\CCCCCCCC(=O)OC(COC(=O)CCCCCCCCCCC)CO[C@@H]1O[C@H](CO)[C@@H](O)[C@H](O)[C@H]1O,186,VERO,plaque count,>50 µg/mL
Nc1nc2c(ncn2COCCO)c(=O)[nH]1,196,PRK,cytopathic effect,0.07 µg/mL
CCCCCCCCCCCCCCCCCC(=O)OCC(CO[C@@H]1O[C@H](CO)[C@@H](O)[C@H](O)[C@H]1O)OC(=O)CCCCCCCCCCCCCCCCC,186,VERO,plaque count,>50 µg/mL
Nc1nc2c(ncn2CCC(CO)CO)c(=O)[nH]1,13 isolates,MRC-5,plaque count,1.5 µg/mL
Nc1nc(-n2c(-c3ccccc3)nc3ccc(Br)cc3c2=O)nnc1-c1cccc(Cl)c1Cl,G,E6SM,cytopathic effect,48 µg/mL
CC(=O)OC[C@H]1O[C@H](OC(=O)NS(=O)(=O)OC[C@H]2O[C@@H](n3ccc(=O)[nH]c3=O)[C@H](OC(C)C)[C@@H]2OC(C)C)[C@@H](OC(C)=O)[C@@H](OC(C)=O)[C@@H]1OC(C)=O,Lovelace,VERO,plaque count,>100 µg/mL
Nc1ncnc2c1ncn2[C@@H]1C=C(CO)[C@@H](O)[C@@H]1O,G,PRK,cytopathic effect,>400 µg/mL
O=C(OC[C@H]1O[C@@H](OC(=O)c2cc(O)c(O)c(O)c2)[C@H](O)[C@@H](OC(=O)c2cc(O)c(O)c(O)c2)[C@@H]1O)c1cc(O)c(O)c(O)c1,G,VERO,plaque count,0.041 µg/mL
Nc1nc2c(ncn2COC2COP(=O)(O)OC2)c(=O)[nH]1,Curtis,MRC-5,plaque count,1–2 µM
COc1cc(Cc2cnc(-n3c(C)nc4ccc(Br)cc4c3=O)nc2N)cc(OC)c1OC,G,E6SM,cytopathic effect,>80 µg/mL
COc1cc(OC)c(NC(=S)Nc2ccc(NC(=O)c3ccccc3F)cc2Cl)cc1Cl,12,HFF,ELISA,6.8 µg/mL
O=c1[nH]c(=O)n([C@H]2CC[C@@H](CO)O2)cc1/C=C/Br,G,PRK,cytopathic effect,1 µg/mL
CCCCCCCCCCCCCCCC(=O)OC[C@H]1O[C@H](OC(=O)NS(=O)(=O)OC[C@H]2O[C@@H](n3ccc(=O)[nH]c3=O)[C@H](OC(C)C)[C@@H]2OC(C)C)[C@H](OC(=O)CCCCCCCCCCCCCCC)[C@@H](OC(=O)CCCCCCCCCCCCCCC)[C@@H]1OC(=O)CCCCCCCCCCCCCCC,Lovelace,VERO,plaque count,>100 µg/mL
C=CCOc1nc(N)nc2c1ncn2/C=C1/C[C@@H]1CO,,HFF,cytopathic effect,>366 µM
Cc1cn([C@@H]2CO[C@H](CO)[C@@H](O)C2)c(=O)[nH]c1=O,G,E6SM,cytopathic effect,>20 µg/mL
CC(C)O[C@@H]1[C@H](OC(C)C)[C@@H](COS(=O)(=O)NC(=O)O[C@H]2O[C@H](COCc3ccccc3)[C@@H](OCc3ccccc3)[C@H](OCc3ccccc3)[C@H]2OCc2ccccc2)O[C@H]1n1ccc(=O)[nH]c1=O,Lovelace,VERO,plaque count,10 µg/mL
Nc1ncnc2c1ncn2C[C@H](O)CO,G,PRK,cytopathic effect,>400 µg/mL
CC(=O)OC[C@H]1[C@H](COC(C)=O)[C@@H](COC(C)=O)O[C@H]1n1cnc2c(N)ncnc21,Clinical isolate HEETER,MEF,plaque count,172 µM
CC(=O)N[C@H]1[C@@H](OC(=O)NS(=O)(=O)OC[C@H]2O[C@@H](n3ccc(=O)[nH]c3=O)[C@H](OC(C)C)[C@@H]2OC(C)C)O[C@H](COC(=O)c2ccccc2)[C@@H](OC(=O)c2ccccc2)[C@@H]1OC(=O)c1ccccc1,Lovelace,VERO,plaque count,>100 µg/mL
Nc1nc(NC2CC2)c2ncn(/C=C3/C[C@@H]3CO)c2n1,,HFF,cytopathic effect,>73.4 µM
O=C(NCc1ccc(Cl)cc1)c1cn2c3c(cc(CN4CCOCC4)cc3c1=O)OC(c1cccnc1)C2,L6262351 (WILD TYPE),HFF,plaque count,>13 µM
CS/C=C/C(=O)NCCCCNC(=O)Cc1ccccc1,,,plaque count,>20 µg/mL
COc1ncnc2c1ncn2[C@@H]1O[C@H](CO)[C@@H](O)[C@@H]1O,,VERO,cytopathic effect,>100 µM
CC1(C)OCC(COC(=O)O)(CC(COC(=O)O)OC(=O)O)O1,,CCL18,,>100 µM
O=c1[nH]c(=O)n([C@@H]2OC3COP(=O)(O)OC3[C@H]2O)cc1I,196,PRK,cytopathic effect,>400 µg/mL
Cc1cc(C2CCCCC2)n(O)c(=O)c1,Clinical isolate,HFF,plaque count,1 µM
CC[C@H](C)[C@H](N)[C@H](O)n1nc(C)c2c(Cl)c3cc(OC)ccc3nc21,,VERO,plaque count,0.8 µg/mL
C=CCc1ncn2c(=O)[nH]c(NC(C)=O)nc12,G,PRK,cytopathic effect,>200 µg/mL
Cc1cn(C[C@H]2C[C@H]2CO)c(=O)[nH]c1=O,,VERO,,>50 µM
CCOc1ccc(-c2c3cc(O)c(=O)cc-3oc3cc(O)c(O)cc23)cc1,Clinical isolate,HFF,plaque count,0.52 µM
O=C(Nc1ccn([C@@H]2CC(O)(CO)CO2)c(=O)n1)c1ccccc1,,CCL18,,>100 µM
CC(C)=CCCC(CO)C1CCC2C3CC=C4C[C@H](O)[C@@H](O)CC4(C)C3CCC12C,G,VERO,plaque count,17.5 µg/mL
Nc1ncnc2c1ncn2[C@@H]1O[C@H](COP(=O)(O)O)[C@@H](O)[C@@H]1O,Clinical isolate HEETER,MEF,plaque count,20 µM
Nc1nc2c(ncn2OCC2COP(=O)(O)CO2)c(=O)[nH]1,MS,MRC-5,plaque count,49 µg/mL
Cc1cn([C@H]2C[C@](O)(CO)CO2)c(=O)[nH]c1=O,,CCL18,,>100 µM
Nc1nccc2c1ncn2[C@@H]1C[C@H](CO)[C@@H](O)[C@H]1O,G,PRK,cytopathic effect,≥200 µg/mL
Cc1cn([C@H]2CO[C@H](CO)[C@@H](O)C2)c(=O)[nH]c1=O,G,E6SM,cytopathic effect,>20 µg/mL
CC(=O)OC[C@H]1O[C@H](OC(=O)NS(=O)(=O)OC[C@H]2O[C@@H](n3ccc(=O)[nH]c3=O)[C@H](OC(C)C)[C@@H]2OC(C)C)[C@H](OC(C)=O)[C@@H](OC(C)=O)[C@@H]1OC(C)=O,Lovelace,VERO,plaque count,>100 µg/mL
CC(=O)Nc1nc2c(CC(O)CO)ncn2c(=O)[nH]1,G,PRK,cytopathic effect,>200 µg/mL

For reference, 6 entries again:

structure,strain or isolate,cells,read by,value
CS/C=C/C(=O)NCCCCNC(=O)Cc1ccccc1,,,plaque count,>20 µg/mL
CC(=O)O[C@H]1CC2=CCC3C(CCC4(C)C(C(CCC=C(C)C)COS(=O)(=O)O)CCC34)C2(C)C[C@@H]1OS(=O)(=O)O,TYPE G,VERO,plaque count,22.4 µg/mL
Nc1nc2c(ncn2OCC2COP(=O)(O)CO2)c(=O)[nH]1,MS,MRC-5,plaque count,49 µg/mL
Nc1nc2c(ncn2COC2COP(=O)(O)OC2)c(=O)[nH]1,Curtis,MRC-5,plaque count,1–2 µM
CC(=O)N[C@H]1[C@@H](OC(=O)NS(=O)(=O)OC[C@H]2O[C@@H](n3ccc(=O)[nH]c3=O)[C@H](OC(C)C)[C@@H]2OC(C)C)O[C@H](COC(=O)c2ccccc2)[C@@H](OC(=O)c2ccccc2)[C@@H]1OC(=O)c1ccccc1,Lovelace,VERO,plaque count,>100 µg/mL
O=C(NCc1ccc(Cl)cc1)c1cn2c3c(cc(CN4CCOCC4)cc3c1=O)OC(c1cccnc1)C2,L6262351 (WILD TYPE),HFF,plaque count,>13 µM